For the test, the system named is Caco-2 cells. Description: Inflammatory cytokine gene expression in Caco-2 cells exposed to S. enteritidis (macroarray, Northern, real-time PCR). It is filed as cell-based.

With Bacteroides thetaiotaomicron [BT], the “Inhibitory effect on IL-8 expression over time” value (10^8 S. enteritidis and 10^9 B. thetaiotaomicron for 2 or 4 hours) is listed as “sustained for prolonged periods”. Further, the “IL-8 expression induced by other inflammatory mediators (IL-1α, IL1-β, TNF-α, PMA, LPS, E. coli 0157 H7)” value (10^9 B. thetaiotaomicron) is “only the PMA, S. enteritidis and E. coli 0157 H7 effects were attenuated”.

The record behind these values is patent US7998474B2, “Methods for treating an inflammatory disease of the bowel” (Rowett Research Institute, priority 2001, dated 2011).
